Pooled drug test results. Numbers come from NIAID ChemDB, via PubChem.

Common to all: target-level tests

Two numbers with a dash give a range or band.

smiles | protein | tested at | organism | read-out | value
O=C(O)CCC(=O)N[C@H](C(=O)N[C@@H](CCC(=O)O)C(=O)N[C@H](C(=O)N[C@@H](CS)C(=O)O)C1CCCCC1)C(c1ccccc1)c1ccccc1 | Nonstructural protein 3 NTPase/helicase | 16.7 µM | Hepatitis C virus | inhibition | 25%
CC[C@@H](C=O)NC(=O)[C@@H]1C[C@@H](OCc2ccccc2)CN1C(=O)[C@@H](NC(=O)Cc1ccc(NC(C)=O)cc1)C(C)C | NS3 protease | - | Hepatitis C virus | Ki | >100 µM
CNC(=O)c1c(-c2ccc(F)cc2)oc2cc(N(C)S(C)(=O)=O)c(OCc3ccc(OC)cc3)cc12 | Nonstructural protein 5B | - | Hepatitis C virus | IC50 | ≤0.5 µM
O=C(NCc1cccc(Cl)c1)Nc1cccc(-c2nc(C(=O)O)c(O)c(=O)[nH]2)c1 | HCV polymerase | - | Hepatitis C virus | IC50 | <100 µM
CC[C@@H](C=O)NC(=O)[C@@H]1C[C@@H](OC(=O)Nc2cc(Cl)c(N)c(Cl)c2)CN1C(=O)[C@@H](NC(=O)[C@@H](NC(=O)c1cnccn1)C(C)C)C(C)C | NS3 protease | - | Hepatitis C virus | Ki | >100 µM
COc1nc(NCCO)nc(Nc2ccc3[nH]ncc3c2)n1 | DNA polymerase | 0.1 µg/mL | Hepatitis B virus | inhibition | 34%
CNC(=O)c1c(-c2ccc(F)cc2)oc2cc(-c3c(C)n[nH]c3C)c(OC(C)C)cc12 | Nonstructural protein 5B | - | Hepatitis C virus | IC50 | ≤0.5 µM
Cc1ccc(C(=O)N(C)c2cc(-c3ccc(C)cc3)sc2C(=O)O)cc1 | NS3 ATPase | - | Hepatitis C virus | IC50 | 5–20 µM
CNC(=O)c1c(-c2ccc(F)cc2)oc2cc(N(C)S(C)(=O)=O)c(OC(F)F)cc12 | Nonstructural protein 5B | - | Hepatitis C virus | IC50 | ≤0.5 µM
COC(COC(=O)Nc1ccsc1-c1nc(C(=O)O)c(O)c(=O)[nH]1)c1ccccc1 | HCV polymerase | - | Hepatitis C virus | IC50 | <25 µM
COCCNc1nc(Nc2ccc3cn[nH]c3c2)nc(OC)n1 | DNA polymerase | 0.01 µg/mL | Hepatitis B virus | inhibition | 32%
CN(C(=O)c1cc2ccccc2s1)c1cc(-c2ccccc2)sc1C(=O)O | NS3 ATPase | - | Hepatitis C virus | IC50 | 5–20 µM
COc1nc(Nc2ccc3cn[nH]c3c2)nc(N2CCN(C(=O)c3cccnc3)CC2)n1 | DNA polymerase | 1 µg/mL | Hepatitis B virus | inhibition | 46%
CCc1cc2c(C(=O)NC)c(-c3ccc(F)cc3)oc2cc1N(C)S(C)(=O)=O | Nonstructural protein 5B | - | Hepatitis C virus | IC50 | ≤0.5 µM
N#Cc1cccc(C(=O)Nc2cccc(-c3nc(C(=O)O)c(O)c(=O)[nH]3)c2)c1 | HCV polymerase | - | Hepatitis C virus | IC50 | <100 µM
O=C(N[C@@H](Cc1c[nH]c2ccccc12)C(=O)O)c1cnn2c(C3CCCCC3)c(-c3ccccc3)cnc12 | RNA-dependent RNA polymerase | - | Hepatitis C virus | IC50 | <1 µM
CC[C@@H](C=O)NC(=O)[C@@H]1C[C@@H](OCc2ccc(C#N)cc2)CN1C(=O)[C@@H](NC(=O)[C@@H](NC(=O)c1cnccn1)C(C)C)C(C)C | NS3 protease | - | Hepatitis C virus | Ki | 1–100 µM
O=C(O)c1ccc2c(c1)nc(-c1ccc3nc(-c4ccc(-n5ccnc5)cc4)ccc3c1)n2C1CCCCC1 | NS5B polymerase | 33 µM | Hepatitis C virus | inhibition | 99.22%
O=C(O)c1sc(-c2ccccc2)cc1NS(=O)(=O)c1ccccc1F | NS3 ATPase | - | Hepatitis C virus | IC50 | 5–20 µM
O=C(O)c1cnn2c(-c3cccc(-c4ccc(Cl)cc4)c3)ccnc12 | RNA-dependent RNA polymerase | - | Hepatitis C virus | IC50 | >10 µM
COc1nc(Nc2ccc3[nH]ncc3c2)nc(N2CCN(C)CC2)n1 | DNA polymerase | 1 µg/mL | Hepatitis B virus | inhibition | 69%
CCC(C)[C@H](NC(=O)[C@@H](NC(=O)CCC(=O)O)C1CCCCC1)C(=O)N[C@@H](CCC(=O)O)C(=O)NC1(C(=O)O)CC1 | Nonstructural protein 3 NTPase/helicase | 83.5 µM | Hepatitis C virus | inhibition | 14%
CC[C@@H](C=O)NC(=O)[C@H](CC(C)C)NC(=O)[C@@H](NC(=O)[C@@H](NC(=O)c1cc[n+]([O-])cc1)C(C)C)C(C)C | NS3 protease | - | Hepatitis C virus | Ki | 1–100 µM
Cc1cc(S(=O)(=O)Nc2ccccc2-c2nc(C(=O)O)c(O)c(=O)[nH]2)c(C)cc1Cl | HCV polymerase | - | Hepatitis C virus | IC50 | <100 µM
COc1nc(NCCCN2CCCC2=O)nc(Nc2ccc3cn[nH]c3c2)n1 | DNA polymerase | 0.1 µg/mL | Hepatitis B virus | inhibition | 30%
CC(C)N(C(=O)c1ccc(Cl)cc1Cl)c1cc(-c2nccs2)sc1C(=O)O | NS3 ATPase | - | Hepatitis C virus | IC50 | <5 µM
COc1ccc(-c2ccc(Cl)cc2)c(-c2ccc3cc(-c4nc5cc(C(=O)O)ccc5n4CC4CC4)ccc3n2)c1 | NS5B polymerase | 100 µM | Hepatitis C virus | inhibition | 99.26%
CNC(=O)c1c(-c2ccc(F)cc2)oc2cc(CN3CC(O)=C(C#N)C3=O)c(OC)cc12 | Nonstructural protein 5B | - | Hepatitis C virus | IC50 | ≤0.5 µM
CCC(C)[C@H](NC(=O)[C@@H](NC(=O)CCCC(=O)O)C1CCCCC1)C(=O)N[C@@H](CC1CCCCC1)C(=O)N[C@@H](CS)C(=O)O | Nonstructural protein 3 NTPase/helicase | 16.7 µM | Hepatitis C virus | inhibition | 69%
CCOC(=O)c1cccc(NC(=O)O[C@@H]2C[C@@H](C(=O)N[C@H](C=O)CC)N(C(=O)[C@@H](NC(=O)[C@@H](NC(=O)c3cnccn3)C(C)C)C(C)C)C2)c1 | NS3 protease | - | Hepatitis C virus | Ki | >100 µM
c1ccc(COc2ccc(-c3cnc4c(-c5nn[nH]n5)cnn4c3C3CCCCC3)cc2)nc1 | RNA-dependent RNA polymerase | - | Hepatitis C virus | IC50 | <1 µM
CC(C)(C)c1ccc(CN(C(=O)C2CCCCC2)c2cc(-c3ccccc3)sc2C(=O)O)cc1 | NS3 ATPase | - | Hepatitis C virus | IC50 | <5 µM
COc1nc(Nc2ccc3[nH]ncc3c2)nc(NN2CCN(C)CC2)n1 | DNA polymerase | 1 µg/mL | Hepatitis B virus | inhibition | 39%
CC1CCC(C(=O)N(c2cc(-c3ccccc3)sc2C(=O)O)C2CCCCC2)CC1 | NS3 ATPase | - | Hepatitis C virus | IC50 | <5 µM
O=C(O)c1nc(-c2c[nH]c3ccccc23)[nH]c(=O)c1O | HCV polymerase | - | Hepatitis C virus | IC50 | <100 µM
CCC(=O)N(Cc1ccc(C(F)(F)F)cc1)c1cc(-c2ccccc2)sc1C(=O)O | NS3 ATPase | - | Hepatitis C virus | IC50 | 5–20 µM
CC(C)(C)OC(=O)NCc1ccc(COC(=O)Nc2ccsc2-c2nc(C(=O)O)c(O)c(=O)[nH]2)cc1 | HCV polymerase | - | Hepatitis C virus | IC50 | <25 µM
O=C(O)CCCC(=O)N[C@H](C(=O)N[C@@H](CCC(=O)O)C(=O)N[C@@H](CCC(=O)O)C(=O)NC1(C(=O)O)CC1)C(c1ccccc1)c1ccccc1 | Nonstructural protein 3 NTPase/helicase | 83.5 µM | Hepatitis C virus | inhibition | 27%
O=C(O)c1cc2nc(-c3ccc(F)cc3)cc(-c3ccc(OCc4ccccc4)cc3)n2n1 | RNA-dependent RNA polymerase | - | Hepatitis C virus | IC50 | >10 µM
CC(=O)N[C@H](C(=O)N[C@@H](CCC(=O)O)C(=O)N[C@@H](Cc1ccc2ccccc2c1)C(=O)N[C@@H](CS)C(=O)O)C1CCCCC1 | Nonstructural protein 3 NTPase/helicase | 1.67 µM | Hepatitis C virus | inhibition | 8%
COc1cc(OC)cc(C(=O)Nc2cccc(-c3nc(C(=O)O)c(O)c(=O)[nH]3)c2)c1 | HCV polymerase | - | Hepatitis C virus | IC50 | <100 µM
COc1ccc(S(=O)(=O)Nc2cc(-c3ccccc3)sc2C(=O)O)c([N+](=O)[O-])c1 | NS3 ATPase | - | Hepatitis C virus | IC50 | 5–20 µM
O=C(O)c1ccc2c(c1)nc(-c1ccc3nc(CCCO)ccc3c1)n2C1CCCCC1 | NS5B polymerase | 100 µM | Hepatitis C virus | inhibition | 93.53%
CNC(=O)c1c(-c2ccc(F)cc2)oc2cc(N(C)S(C)(=O)=O)c(OCc3ccc(C#N)cc3)cc12 | Nonstructural protein 5B | - | Hepatitis C virus | IC50 | ≤0.5 µM
CC[C@@H](C=O)NC(=O)[C@@H]1C[C@@H](OCc2ccccc2)CN1C(=O)[C@@H](NC(=O)Cc1ccsc1)C(C)C | NS3 protease | - | Hepatitis C virus | Ki | >100 µM
COc1nc(Nc2ccc3cn[nH]c3c2)nc(NN2CCOCC2)n1 | DNA polymerase | 1 µg/mL | Hepatitis B virus | inhibition | 72%
O=C(Nc1ccsc1-c1nc(C(=O)O)c(O)c(=O)[nH]1)c1cccc(Cl)c1 | HCV polymerase | - | Hepatitis C virus | IC50 | <25 µM
CC(C)C[C@H](NC(=O)CCC(=O)O)C(=O)N[C@@H](CCC(=O)O)C(=O)N[C@@H](CCC(=O)O)C(=O)NC1(C(=O)O)CC1 | Nonstructural protein 3 NTPase/helicase | - | Hepatitis C virus | IC50 | >167 µM
CC[C@@H](C=O)NC(=O)[C@@H]1C[C@@H](OCc2ccccc2)CN1C(=O)[C@@H](NC(=O)Cc1ccc(NC(=O)Cc2ccccc2)cc1)C(C)C | NS3 protease | - | Hepatitis C virus | Ki | 1–100 µM
COCCNc1nc(Nc2ccc3[nH]ncc3c2)nc(OC)n1 | DNA polymerase | 0.1 µg/mL | Hepatitis B virus | inhibition | 56%
C[C@@H](O)C(NC(=O)c1ccc2c(c1)nc(-c1ccc3nc(-c4ccccc4)cnc3c1)n2C1CCCCC1)C(=O)O | NS5B polymerase | 100 µM | Hepatitis C virus | inhibition | 97.87%
O=C(O)CNc1cc(-c2ccc(Cl)cc2)nc2cc(C(=O)O)nn12 | RNA-dependent RNA polymerase | - | Hepatitis C virus | IC50 | >10 µM
COc1nc(NCCN2CCOCC2)nc(Nc2ccc3[nH]ncc3c2)n1 | DNA polymerase | 0.01 µg/mL | Hepatitis B virus | inhibition | 30%
O=C(O)COc1ccc(-c2ccc(Cl)cc2)c(-c2ccc3cc(-c4nc5cc(C(=O)O)ccc5n4C4CCCCC4)ccc3n2)c1 | NS5B polymerase | 33 µM | Hepatitis C virus | inhibition | 97.56%
CC[C@@H](C=O)NC(=O)[C@@H]1C[C@@H](OCc2ccccc2)CN1C(=O)[C@@H](NC(=O)/C(=N\OC)c1csc(N)n1)C(C)C | NS3 protease | - | Hepatitis C virus | Ki | 1–100 µM
NC(=O)CC[C@H](NC(=O)[C@@H](NC(=O)CCC(=O)O)C1CCCCC1)C(=O)N[C@H](C(=O)N[C@@H](CS)C(=O)O)c1ccc(-c2ccccc2)cc1 | Nonstructural protein 3 NTPase/helicase | 16.7 µM | Hepatitis C virus | inhibition | 61%

Again, the opening 5 rows:

smiles	protein	tested at	organism	read-out	value
O=C(O)CCC(=O)N[C@H](C(=O)N[C@@H](CCC(=O)O)C(=O)N[C@H](C(=O)N[C@@H](CS)C(=O)O)C1CCCCC1)C(c1ccccc1)c1ccccc1	Nonstructural protein 3 NTPase/helicase	16.7 µM	Hepatitis C virus	inhibition	25%
CC[C@@H](C=O)NC(=O)[C@@H]1C[C@@H](OCc2ccccc2)CN1C(=O)[C@@H](NC(=O)Cc1ccc(NC(C)=O)cc1)C(C)C	NS3 protease	-	Hepatitis C virus	Ki	>100 µM
CNC(=O)c1c(-c2ccc(F)cc2)oc2cc(N(C)S(C)(=O)=O)c(OCc3ccc(OC)cc3)cc12	Nonstructural protein 5B	-	Hepatitis C virus	IC50	≤0.5 µM
O=C(NCc1cccc(Cl)c1)Nc1cccc(-c2nc(C(=O)O)c(O)c(=O)[nH]2)c1	HCV polymerase	-	Hepatitis C virus	IC50	<100 µM
CC[C@@H](C=O)NC(=O)[C@@H]1C[C@@H](OC(=O)Nc2cc(Cl)c(N)c(Cl)c2)CN1C(=O)[C@@H](NC(=O)[C@@H](NC(=O)c1cnccn1)C(C)C)C(C)C	NS3 protease	-	Hepatitis C virus	Ki	>100 µM

Blank or dashed fields: not listed here. Neighbouring rows are from separate reports. Inhibition is in % at the dose shown (toxicity tests: loss of growth or viability). ICn is the concentration giving n% inhibition.